Measured values from several laboratories, pooled; numbers as filed in NIAID ChemDB.

Common to all: growth or infection tests; agent: HIV-1; method: antigen; measure: EC50

a–b is a range or a potency band. An empty or dashed field is not shown. Neighbouring rows are from separate reports. ECn: concentration that inhibits the pathogen or its effect by n%.

SMILES	strain or isolate	cell line	result
CCCCCCCCCCCCCCCCCCOP(=O)([O-])OCC[NH2+]C		C8166	25 µM
COC(=O)C(=O)N1CCC[C@H]1C(=O)N[C@H](Cc1ccccc1)C(=O)N[C@H](C)C(=O)Nc1ccc(OCC(=O)N[C@@H](CC(N)=O)C(=O)N[C@@H](Cc2ccccc2)[C@H](O)C(=O)N2CCC[C@H]2C(=O)NC(C)(C)C)cc1		MT-4	>100 µg/mL
C#C[C@@]1(OC(C)=O)[C@@H]([C@@H](COC(C)=O)OC(C)=O)O[C@@H](n2ccc(N)nc2=O)[C@@H]1OC(C)=O	IIIB	MT-4	>100 µM
Cc1cn([C@@H]2O[C@H](CO)[C@@H](F)[C@@H]2F)c(=O)nc1N	IIIB	H9	>1000 µM
C#C[C@@]12OC[C@]1(CO)O[C@@H](n1ccc(N)nc1=O)[C@@H]2O	IIIB	MT-4	>100 µM
CCCCCCCCCCCCOP(=O)([O-])OCC[NH2+]C		C8166	>100 µM
CCCCC(=O)OC[C@H]1O[C@@H](n2cnc3c(N)ncnc32)[C@@H]1CO		MT-4	<3 µg/mL
Cc1cn([C@@H]2O[C@H](COC(c3ccccc3)(c3ccccc3)c3ccccc3)[C@@H](N=[N+]=[N-])[C@H]2F)c(=O)[nH]c1=O	IIIB	H9	>1000 µM
C#C[C@]1(OC(C)=O)[C@@H](OC(C)=O)[C@H](n2ccc(=O)[nH]c2=O)OC1(COC(C)=O)COC(C)=O	IIIB	MT-4	>100 µM
Nc1ncnc2c1ncn2[C@@H]1O[C@H](CO)[C@H]1N		MT-4	<3 µg/mL
C#C[C@@]1(OC(C)=O)[C@@H]([C@@H](C)OC(C)=O)O[C@@H](n2ccc(=O)[nH]c2=O)[C@@H]1OC(C)=O	IIIB	MT-4	>100 µM
CC(C)(C)NC(=O)[C@@H]1C[C@H](O)CN1C(=O)[C@@H](O)[C@H](Cc1ccccc1)NC(=O)[C@H](CC(N)=O)NC(=O)OCc1ccccc1		MT-4	4.5–6 µg/mL
Cc1cn([C@@H]2O[C@H](CO)[C@@H](O)[C@@H]2F)c(=O)[nH]c1=O	IIIB	H9	>1000 µM
[N-]=[N+]=NC[C@H]1[C@H](n2cnc3c(N)ncnc32)O[C@@H]1CO		MT-4	<3 µg/mL
Cc1cn2c(nc1=O)OC1[C@H]2O[C@H](COC(c2ccccc2)(c2ccccc2)c2ccccc2)[C@H]1O	IIIB	H9	>1000 µM
C=C1[C@H](n2cnc3c(N)ncnc32)O[C@@H]1CO		MT-4	<3 µg/mL
Cc1cn([C@@H]2O[C@H](CO)C=C2F)c(=O)[nH]c1=O	IIIB	H9	>1000 µM
COC(=O)C(=O)N1CCC[C@H]1C(=O)N[C@H](Cc1ccccc1)C(=O)N[C@@H](CC(N)=O)C(=O)N[C@@H](Cc1ccccc1)[C@H](O)C(=O)N1CCC[C@H]1C(=O)NC(C)(C)C		MT-4	>100 µg/mL
Cc1cn([C@@H]2O[C@H](COC(c3ccccc3)(c3ccccc3)c3ccccc3)C[C@@H]2O)c(=O)[nH]c1=O	IIIB	H9	>1000 µM
CC(C)(CN)NC(=O)[C@@H]1CCCN1C(=O)[C@@H](O)[C@H](Cc1ccccc1)NC(=O)[C@H](CC(N)=O)NC(=O)OCc1ccccc1		MT-4	>100 µg/mL
C#C[C@@]1(O)[C@@H]([C@H](O)CO)O[C@@H](n2ccc(=O)[nH]c2=O)[C@@H]1O	IIIB	MT-4	>100 µM
Cc1cn([C@@H]2O[C@H](COC(c3ccccc3)(c3ccccc3)c3ccccc3)[C@@H](N=[N+]=[N-])[C@@H]2O)c(=O)[nH]c1=O	IIIB	H9	>1000 µM
C#C[C@@]1(O)[C@@H]([C@@H](C)O)O[C@@H](n2ccc(N)nc2=O)[C@@H]1O	IIIB	MT-4	>100 µM
Cc1cn2c(nc1=O)O[C@@H]1[C@H](F)[C@H]2O[C@@H]1COC(c1ccccc1)(c1ccccc1)c1ccccc1	IIIB	H9	>1000 µM